{"sequences": {"note": "By UniProt entry, the sequences of proteins in these tests, tags left out.", "UniProt Q05097, whole entry": "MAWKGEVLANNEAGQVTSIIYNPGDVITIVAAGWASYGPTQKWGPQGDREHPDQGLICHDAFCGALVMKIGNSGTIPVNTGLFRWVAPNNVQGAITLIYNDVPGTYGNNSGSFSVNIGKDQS"}, "source": "paper PMC11672137", "about": "“High-Affinity Lectin Ligands Enable the Detection of Pathogenic Pseudomonas aeruginosa Biofilms: Implications for Diagnostics and Therapy” (JACS Au, 2024)", "key": {"LecA": {"target": "LecA (Pseudomonas aeruginosa, UniProt Q05097)", "test": "Competitive binding assay based on fluorescence polarization, LecA", "details": "LecA 20 µM, reporter ligand S38, 2% DMSO", "procedure": "Next, binding of the optimized divalent ligand 17 and its synthetic precursor 16 to LecA was evaluated by fluorescence polarization-based (FP) assays,[47] SPR, and ITC. […] Therefore, fluorescent ligand 17 was analyzed in a direct binding experiment by FP. […] The dissociation constants for 16 were 47.2 ± 11.3 nM (ITC) and 47.8 ± 44.1 nM (steady-state SPR), while for 17, the values were 64.1 ± 31.1 nM and 79.3 ± 24.9 nM (steady-state SPR). For the SPR experiments, Kd was also determined by single-cycle kinetic analysis resulting in approximately five times higher affinity, but the data have limited reliability due to suboptimal fit for the kinetic curves (Figures S13B and S14).[58]−[60] […]\n137 mM NaCl, 2.6 mM KCl at pH 7.4 supplemented with 1 mM CaCl2). Protein concentration was determined by UV spectroscopy at 280 nm using a molar extinction coefficient of 27 960 M-1 cm-1 for LecA and 6 990 M-1 cm-1 for LecB.\nAll synthesized alkyne precursors (S5m, S5p, S6m, S6p, S11, 25, S16, S22 and S24) were analysed in the previously established competitive binding assays based on fluorescence polarization (Figure S2).18,19 Galactose-based compounds (S5m, S5p, S6m, S6p, S11) were evaluated against LecA and C-glycoside-based compounds […] and S16 against LecB. […]\nPheraStar FS plate reader (BMG Labtech GmbH, Germany) with excitation filters at 485 nm and emission filters at 535 nm. […]"}, "LecB": {"target": "LecB (Pseudomonas aeruginosa, UniProt Q9HYN5)", "test": "Competitive binding assay based on fluorescence polarization, LecB", "details": "reporter ligand S39, less than 0.5% DMSO"}}, "note": "The structures given here were assigned with low confidence; some may be wrong.", "data": [{"smiles": "C#CCNc1ccc(S[C@@H]2OC[C@@H](O)[C@H](O)[C@H]2O)cc1", "note": "[S20]", "values": [{"measurement": "IC50 (competitive binding, FP)", "setting": "LecA", "value": "n.b."}, {"measurement": "IC50 (competitive binding, FP)", "setting": "LecB", "value": "n.b."}]}]}
